Measured values taken from paper PMC11623267, “Inhibitors of malaria parasite cyclic nucleotide phosphodiesterases block asexual blood-stage development and mosquito transmission” (Science Advances, 2024).

Test system: P. falciparum clinical isolates from Tororo and Busia Districts of Uganda
Experiment: Ex vivo 72-hour SYBR Green assay, Ugandan clinical isolates
Type: cell-based, Plasmodium falciparum
Conditions: curve fits
Excerpt: Clinical isolates were from the Tororo District of Uganda, located in the central-eastern part of the county near the Kenya border. Tororo and surrounding areas have high-intensity, year-round malaria transmission. […] Patients reporting use of antimalarial treatment within the previous 30 days or with evidence of an infection with other Plasmodium species were excluded. Informed consent was obtained from patients and/or primary care givers (depending on age); children aged 8 to 17 years provided assent. Two to 5 ml of blood was collected by venipuncture in a heparin tube. […]
Samples were delivered to the adjacent IDRC laboratory at Tororo District Hospital or transported by car from Masafu Hospital on the day of collection for storage of blood spots on filter paper (for isolation of nucleic acids) and initiation of ex vivo culture of malaria parasites. […] Fluorescence was quantified using a BMG Fluostar Optima plate reader at an excitation of 485 nm and an emission of 530 nm, and data were plotted using GraphPad Prism 7. […] For each isolate, a Z′ factor to assess assay quality was calculated from positive controls (eight drug-free wells) and negative controls (eight parasite-free, red cell control wells). […]

In the case of `CC(C)c1[nH]nc2c(=O)[nH]c(Cc3ccccc3F)nc12` [SAL-0010042], the “H.S. (mean Hill slope)” value is reported as 2.93.

For `CCNC(=O)c1cnc(OCC(C)C)c(-c2nc3c(C(C)C)n[nH]c3c(=O)[nH]2)c1` [SAL-0010333], the “H.S. (mean Hill slope)” value was 2.98.
